Data set [1] concerns the target T1, BoNT/A cleavable peptide #115: [5-Fam]TRIDEANQRATK[DABCYL]-Nle.
T1 chain: TRIDEANQRATKX

Data set [2] concerns the target T2, BoNT/A cleavable peptide #116: [4-Mu]TRIDEANQRATK[DABCYL]-Nle.
T2 chain: TRIDEANQRATKX

The target in data set [3] is T3, Control peptide #112: [5-Fam]TRIDEANQRATK[DABCYL]-Hex.
T3 chain: TRIDEANQRATKX

For data set [4], the target named is T4, Control peptide #113: [4-Mu]TRIDEANQRATK[DABCYL]-Hex.
T4 chain: TRIDEANQRATKX

Drawing on US20130065259, this text covers KM for 1 protein.

One may read the KM as the substrate concentration at which the rate is half of its maximum.

B1: Trypsin (protein)
chain: IVGGYTCAANSIPYQVSLNSGSHFCGGSLINSQWVVSAAHCYKSRIQVRLGEHNIDVLEGNEQFINAAKIITHPNFNGNTLDNDIMLIKLSSPATLNSRVATVSLPRSCAAAGTECLISGWGNTKSSGSSYPSLLQCLKAPVLSDSSCKSSYPGQITGNMICVGFLEGGKDSCQGDSGGPVVCNGQLQGIVSWGYGCAQKNKPGVYTKVCNYVNWIQQTIAAN
With B1, the KM in data set [1] amounted to 9.67 µM; in data set [2] it was 3.4 µM; in data set [3] it was 3.75 µM; in data set [4] it was 13.3 µM.
